Compound potency records, mixed from different reports. Data source: NIAID ChemDB in PubChem.

Common to all: whole-cell or culture tests; organism: Mycobacterium tuberculosis

A number after MIC or MFC names an inhibition level or a share of isolates.

smiles	read by	measure	mutations	cell line	strain	dose	value
Cc1nn(-c2ccccc2)c2c1C(c1ccc(O)cc1)c1c(nc(=S)[nH]c1N)O2		inhibition			H37Rv	62.5 µg/mL	96%
Cn1c(=O)c(C(=O)NC(=O)NCCCCCOC(=O)CCCCCCCCCCC(=O)OCCCCCNC(=O)NC(=O)c2cn(Cc3ccccc3)c(=O)n(C)c2=O)cn(Cc2ccccc2)c1=O	BACTEC	MIC bound			H37Rv		>12.5 µg/mL
CCCCCCCCCCCCCCN(CCO)CCO		MIC			H37Rv		12.5 µg/mL
CCc1nc2ccc(Cl)cn2c1C(=O)NCc1ccc(N2CCS(=O)CC2)cc1	resazurin	MIC90			H37Rv		<2 µM
COc1ccc(/C=N/NC(=O)CC(=O)N/N=C/c2ccc(OC)cc2)cc1	BACTEC	inhibition			H37Rv	12.5 µg/mL	7%
CN[C@@H]1[C@H](O[C@H]2[C@H](O[C@H]3[C@H](O)[C@@H](O)[C@H](N=C(N)N)[C@@H](O)[C@@H]3N=C(N)N)O[C@@H](C)[C@]2(O)C=O)O[C@@H](CO)[C@H](O)[C@H]1O	resazurin	MIC	Drug-resistant		ATCC 2794		0.5 µM
CCCCN(CCCC)CCc1c[nH]c2ccccc12	resazurin	MIC			H37Rv		39 µg/mL
O=C1C(Cl)C(c2ccccc2)N1C1=NN2C(=CSC2c2ccc(O)cc2)S1	resazurin	MIC			H37Rv		6.25 µg/mL
C1=C2CCCC/C=C\C=C\CCN3CC[C@@H]4[C@H](CCCCCC/C=C\C=C/CCN(C2)C[C@H]14)C3		MIC			H37Rv (INH-resistant)		3.13 µg/mL
C[C@H]1COc2c(N3CCSCC3)c(F)cc3c(=O)c(C(=O)O)cn1c23	agar	MIC99			MDR-TB		8.59 µM
CCCCCCCCS(=O)(=O)CC(N)=O		MIC			1D4924		≤6.25 µg/mL
CC1COCCOC(=O)c2cccc(n2)C(=O)OCCOCC(C)O1	BACTEC	inhibition			H37Rv	12.5 µg/mL	-22%
CCCCCCCCCCCCCCNCCCO		MIC			H37Rv		12.5 µg/mL
CCN1CCN(c2cc(-c3ccccc3)c3ccc(N)nc3n2)CC1		inhibition			H37Rv	6.25 µg/mL	69%
CC1COc2c(N3CCN(C)C(c4ccccc4)C3)c(F)c([N+](=O)[O-])c3c(=O)c(C(=O)O)cn1c23	agar	MIC99			MDR-TB		3.23 µM
O=C(O)[C@H]1/C(=C/CO)O[C@@H]2CC(=O)N21		MIC			H37Ra		>16 µg/mL
CC(C)=CCOc1c2ccoc2cc2oc(=O)ccc12	resazurin	MIC100	Isoniazid rifampicin ethambutol-resistant		H37Rv clinical isolate CRY8		50 µg/mL
O=C1C(Cl)C(c2ccccc2Cl)N1C1=NN2C(=CSC2c2ccccc2)S1	resazurin	MIC			H37Rv		3.125 µg/mL
Fc1cccc(Cl)c1CSc1ncn[nH]1		MIC			My 331/88		1000 µM
O=C(O)c1ccc([N+](=O)[O-])cc1F	BACTEC	inhibition			H37Rv	12.5 µg/mL	0%
CCCCCCCCCCCCCCNCCO		MIC			H37Rv		12.5 µg/mL
Clc1ccnc2c1ccc1c(Cl)ccnc12	BACTEC	inhibition			H37Rv	12.5 µg/mL	-1%
CC(C)=CCc1cc(/C=C/C(=O)c2cc(CC=C(C)C)c(O)cc2O)ccc1O	resazurin	MIC			H37Rv		39.06 µg/mL
Cc1ccn2c(C(=O)NCc3ccc(S(F)(F)(F)(F)F)cc3)c(C)nc2c1	resazurin	MIC90			H37Rv		<2 µM
CN(C)c1ccc(C2SC=C3SC(N4C(=O)C(Cl)C4c4ccccc4)=NN32)cc1	resazurin	MIC			H37Rv		6.25 µg/mL
CCCCc1ccc(Nc2c(C#N)[n+]([O-])c3cc(Cl)ccc3[n+]2[O-])cc1		MIC			H37Rv		<12.5 µg/mL
Cn1cc(N)cc1C(=O)Nc1cc(C(=O)Nc2ccc3cc(S(=O)(=O)O)cc(S(=O)(=O)O)c3c2)n(C)n1	BACTEC	MIC bound			H37Rv		>12.5 µg/mL
Cc1nn(-c2ccccc2)c2c1C(c1cccc(Br)c1)c1c(nc(=S)[nH]c1N)O2		inhibition			H37Rv	62.5 µg/mL	42%
CCC(C)c1cc(C)cc(OC(=O)c2ccc(N)cc2O)c1		MIC			H37Rv (p-aminosalicylate-resistant)		100 µg/mL
O=c1ccc2c(-c3ccccc3)cc(N3CCOCC3)nc2[nH]1		inhibition			H37Rv	6.25 µg/mL	0%
Cn1cn[nH]c1=S		MIC			My 331/88		1000 µM
O=C(Cc1cccs1)N[C@@H]1C(=O)N2C(C(=O)[O-])=C(C[n+]3ccccc3)CS[C@H]12		MIC			Isolate 3		>16 µg/mL
Cc1nn(-c2ccccc2)c2c1C(c1cccc(Cl)c1)C(C#N)=C(N)O2		inhibition			H37Rv	62.5 µg/mL	13%
CC1COc2c(N3CCN(C(=O)C4COc5ccccc5O4)CC3)c(F)c([N+](=O)[O-])c3c(=O)c(C(=O)O)cn1c23	agar	MIC99					2.81 µM
c1ccc(-c2cc(N3CCCCC3)nc3nc(N4CCCCC4)ccc23)cc1		inhibition		VERO	H37Rv	6.25 µg/mL	99%
NC(=O)C(=CNC(=S)NCc1ccccc1)C(N)=O	resazurin	inhibition			H37Rv	6.25 µg/mL	100%
COc1ccc(C2c3c(nc(=O)[nH]c3N)Oc3c2c(C)nn3-c2ccccc2)cc1		inhibition			H37Rv	62.5 µg/mL	53%
COC(=O)c1c(C(=O)OC)c2cc(C(=O)OC(C)C)ccn2c1C(=O)c1ccc(Br)cc1	resazurin	MIC	XDR-MTB				8 µg/mL
CC1COc2c(N3CCN(C)CC3)c(F)cc3c(=O)c(C(=O)O)cn1c23	resazurin	MIC	Drug-resistant		ATCC 2794		0.14 µM
O=[N+]([O-])c1ccccc1CSc1ncn[nH]1		MIC			My 331/88		>1000 µM
COc1ccc2c(-c3ccccc3)cc(N3CCN(c4ccccc4)CC3)nc2n1		inhibition			H37Rv	6.25 µg/mL	86%
Cc1nc(/N=C(\N)Nc2ccc(Cl)c(Cl)c2)ncc1N1CCC(N2CCCC2)CC1		MIC		VERO	H37Rv		6.25 µg/mL
CCc1nc2sc(C)cn2c1C(=O)NCc1ccc2c(c1)CCO2	resazurin	MIC90			H37Rv		<2 µM
COc1ccccc1OC(=O)c1ccc(N)cc1O		MIC			H37Rv (p-aminosalicylate-resistant)		75 µg/mL
CC(=O)OCC1=C(C(=O)O)N2C(=O)[C@@H](NC(=O)Cc3cccs3)[C@H]2SC1		MIC			Isolate 2		>16 µg/mL
Brc1ccc(CSc2ncn[nH]2)cc1		MIC			My 331/88		250 µM
O=c1ccc2c(-c3ccccc3)cc(N3CCN(c4ccccc4)CC3)nc2[nH]1		MIC			H37Rv		>6.25 µg/mL
CC1=C(C(=S)Nc2ccc(Cl)c(C(=O)OC(C)C)c2)SCCO1	BACTEC	inhibition			H37Rv	12.5 µg/mL	8%
Cc1nc2ccc(Cl)cn2c1C(=O)NCc1ccc(N2CCOCC2)c(F)c1	resazurin	MIC90			H37Rv		<2 µM
C1=C(c2nc(-c3cccnc3)no2)c2ccccc2C12CCN(CC1CCCO1)CC2	resazurin	MIC	Ofloxacin-resistant		12119		3.12 µM
O=c1oc(-c2ccc(O)cc2)nn1CN1CCCC1	BACTEC	inhibition			H37Rv	12.5 µg/mL	16%
C1=C(c2nc(-c3ccccc3)no2)c2ccccc2C12CCN(CC1CC1)CC2	resazurin	MIC			H37Rv		0.4 µM
C[C@@H](O)[C@H]1C(=O)N2C(C(=O)O)=C(SCCN=CN)C[C@H]12		MIC			Isolate 5		2 µg/mL
Cc1cc(S(=O)(=O)Nc2nc(N)nc(N(C)C)n2)c(S)cc1Cl	BACTEC	inhibition			H37Rv	12.5 µg/mL	84%
O=[N+]([O-])c1cn2c(n1)OC[C@@H](OCc1ccc(OC(F)(F)F)cc1)C2		MIC			H37Rv-T3 (PA-824-resistant)		>100 µM
Cn1cnnc1SCc1cccc(Br)c1		MIC			My 331/88		500 µM
CC(=O)N(C)c1ccc(Nc2cc(C)[nH]c3ccc4ncnc4c23)cc1	BACTEC	MIC bound			H37Rv		>12.5 µg/mL
CN(C)CCCN1c2ccccc2Sc2ccc(Cl)cc21		MIC			H37Rv		15 µg/mL
O=C(Cc1c[nH]c2ccccc12)NNCc1ccc(N(CCCl)CCCl)cc1	BACTEC	inhibition			H37Rv	12.5 µg/mL	82%
CCC(C)OC(=O)N1CCN(c2ccc3cc(-c4ccccc4)c(N4CCN(C(=O)OC(C)CC)CC4)nc3n2)CC1		MIC			H37Rv		>6.25 µg/mL
CCCCCCCCCCCCNCCO		MIC			H37Rv		6.25 µg/mL
COc1cc(C2=NN(C(=O)COc3ccc4ccccc4c3)[C@H](c3ccc(O)cc3)C2)c(C)cc1OCC(=O)O		MIC			H37Rv		>6.25 µg/mL
Cc1ccn2c(C(=O)NCc3cccc(OC(F)(F)F)c3)c(C)nc2c1	resazurin	MIC90			H37Rv		<2 µM
COC(=O)c1ccccc1N=NC(C#N)C(N)=O	BACTEC	MIC			H37Rv		≥12.5 µg/mL
Cc1ccc(-c2noc(C3=CC4(CCN(CC5CCCO5)CC4)c4ccccc43)n2)cn1	resazurin	MIC	Drug-resistant		D-211		1.56 µM
CC1c2nc(N)nc(N)c2CN1C(=O)c1ccccc1	BACTEC	MIC bound			H37Rv		>12.5 µg/mL
O=C(O)c1ccccc1O		inhibition			7800	200 µM	35%
Cc1ccn2c(C(=O)NCc3ccc(N4CCC(Oc5ccc(C(F)(F)F)cc5)CC4)c(F)c3)c(C)nc2c1	resazurin	MIC90			H37Rv		<2 µM
NC[C@H]1O[C@H](O[C@H]2[C@H](O)[C@@H](O[C@H]3O[C@H](CO)[C@@H](O)[C@H](N)[C@H]3O)[C@H](N)C[C@@H]2N)[C@H](O)[C@@H](O)[C@@H]1O		MIC			TN4728 (BN)		>256 µg/mL
CC[C@@H](CO)NCCN[C@@H](CC)CO	resazurin	MIC	Streptomycin-resistant		136570		1.2 µM
CCCCCCCCCCCCCCCCCCNC(=S)/N=C/C(C(=O)Nc1ccccc1C)=C(\C)O		MIC		VERO	H37Rv		6.25 µg/mL
Clc1ccc2c(-c3ccccc3)cc(N3CCN(c4ccccc4)CC3)nc2n1		MIC			H37Rv		>6.25 µg/mL
COC(=O)/C=C1\Sc2ccc(C(F)(F)F)cc2NC1=O	BACTEC	MIC bound			H37Rv		>12.5 µg/mL
COc1ccc(C2c3c(nc(=S)[nH]c3N)Oc3c2c(C)nn3-c2ccccc2)cc1		inhibition			H37Rv	62.5 µg/mL	56%
COc1c(N2CC[C@@H](C(C)(C)N)C2)c(F)cc2c(=O)c3c(=O)[nH]sc3n(C3CC3)c12		MIC			Pan-susceptible clinical isolate 14		0.06 µg/mL
c1ccc(-c2cc3ccc(N4CCOCC4)nc3nc2N2CCCCC2)cc1		MIC			H37Rv		>6.25 µg/mL
CC(=O)N/C(=C/c1ccc(Cc2nc3c([nH]2)C(=O)c2ccccc2C3=O)cc1)c1nc2c([nH]1)C(=O)c1ccccc1C2=O	BACTEC	inhibition			H37Rv	12.5 µg/mL	18%
Nc1cc2cc(-c3ccccc3)c(N3CCCCC3)nc2nc1N1CCCCC1		MIC			H37Rv		>6.25 µg/mL
Nc1ccc(C(=O)Oc2ccccc2)c(O)c1		MIC			Frankfurt		0.025 µg/mL
CCCCCC1(C)Cn2cc([N+](=O)[O-])nc2O1		MIC			H37Rv-T2 (PA-824-resistant)		3.2 µM
C[N+](C)(C)CC(=O)N/N=C(\C=C\c1ccccc1)CC1OC(=O)c2ccccc21.[Cl-]	BACTEC	MIC bound			H37Rv		>12.5 µg/mL
C[C@H]1COc2c(N3CCC(n4c(=O)[nH]c5cc(Cl)ccc54)CC3)c(F)cc3c(=O)c(C(=O)O)cn1c23	agar	MIC99					1.52 µM
Cc1nn(-c2ccccc2)c2c1C(c1ccc(F)cc1)C(C#N)=C(N)O2		inhibition			H37Rv	62.5 µg/mL	42%
Cc1ccc(C2SC=C3SC(/N=C\c4ccccc4C)=NN32)cc1	resazurin	MIC			H37Rv		6.25 µg/mL
COC(=O)C(=O)c1c(C(=O)OC)nc2[nH]n(-c3ccccc3)c(=O)c2c1Cc1ccccc1	BACTEC	inhibition			H37Rv	12.5 µg/mL	1%
Cc1cn2c(C(=O)NCc3ccc(N4CCN(C(=O)OCC(C)C)CC4)c(F)c3)c(C)nc2s1	resazurin	MIC90			H37Rv		<2 µM

Repeating the final 6 entries:

| smiles | read by | measure | mutations | cell line | strain | dose | value |
|---|---|---|---|---|---|---|---|
| C[N+](C)(C)CC(=O)N/N=C(\C=C\c1ccccc1)CC1OC(=O)c2ccccc21.[Cl-] | BACTEC | MIC bound |  |  | H37Rv |  | >12.5 µg/mL |
| C[C@H]1COc2c(N3CCC(n4c(=O)[nH]c5cc(Cl)ccc54)CC3)c(F)cc3c(=O)c(C(=O)O)cn1c23 | agar | MIC99 |  |  |  |  | 1.52 µM |
| Cc1nn(-c2ccccc2)c2c1C(c1ccc(F)cc1)C(C#N)=C(N)O2 |  | inhibition |  |  | H37Rv | 62.5 µg/mL | 42% |
| Cc1ccc(C2SC=C3SC(/N=C\c4ccccc4C)=NN32)cc1 | resazurin | MIC |  |  | H37Rv |  | 6.25 µg/mL |
| COC(=O)C(=O)c1c(C(=O)OC)nc2[nH]n(-c3ccccc3)c(=O)c2c1Cc1ccccc1 | BACTEC | inhibition |  |  | H37Rv | 12.5 µg/mL | 1% |
| Cc1cn2c(C(=O)NCc3ccc(N4CCN(C(=O)OCC(C)C)CC4)c(F)c3)c(C)nc2s1 | resazurin | MIC90 |  |  | H37Rv |  | <2 µM |

An empty or dashed field is not shown. MIC bound comes from a single tested concentration. Lines come from different laboratories, so protocols vary. Percent inhibition refers to the dose given; in toxicity tests it is the harm to the cells.